Test results taken from patent US20160024159A1, “Potent and selective inhibitors of Nav1.7” (published 2016).
Several values for one entry are separate records, joined by “and”; a condition that tells them apart may be missing. Equal values may be shown once.

How the values were obtained:
Test in all cases: cell-based or functional assay
[1] = molecular target: human Nav1.7 voltage-gated sodium channel (human) (UniProt Q15858)
[2] = molecular target: human voltage-gated sodium channel Nav1.7 (human) (UniProt Q15858)
[3] = molecular target: human voltage-gated sodium channel Nav1.5 (human) (UniProt Q14524)
[4] = molecular target: human voltage-gated sodium channel Nav1.4 (human) (UniProt P35499)
[5] = molecular target: human voltage-gated sodium channel Nav1.3 (human) (UniProt Q9NY46)

| Substance | IC50, IonWorks Quattro electrophysiology [2] | IC50, IonWorks Quattro electrophysiology [3] | IC50, IonWorks Quattro electrophysiology [4] | IC50, IonWorks Quattro electrophysiology [5] | IC50 (IonWorks Quattro) [2] | IC50 (IonWorks Quattro) [3] | IC50 (IonWorks Quattro) [4] | IC50 (IonWorks Quattro) [5] | other results |
| --- | --- | --- | --- | --- | --- | --- | --- | --- | --- |
| Pra-[Nle6; Gly28]JzTx-V(1-29) (peptide; modification not given) |  |  |  |  |  |  |  |  | PX hNav1.7 Tonic IC50 [1]: 3.14 nM |
| Homodimeric Peptide No. 2 (peptide; modification not given) |  |  |  |  |  |  |  |  | Nav1.7 PX IC50 [1]: 0.241 nM |
| Homodimeric Peptide No. 7 (peptide; modification not given) |  |  |  |  |  |  |  |  | Nav1.7 PX IC50 [1]: 2.12 nM |
| Pra-[Nle6; 2-Nal24; Glu28]JzTx-V(1-29) (peptide; modification not given) |  |  |  |  |  |  |  |  | PX hNav1.7 Tonic IC50 [1]: 182 nM |
| Pra-[Nle6; His28]JzTx-V(1-29) (peptide; modification not given) |  |  |  |  |  |  |  |  | PX hNav1.7 Tonic IC50 [1]: 0.371 nM |
| Pra-[Nle6; 1-Nal7; Glu28]JzTx-V(1-29) (peptide; modification not given) |  |  |  |  |  |  |  |  | PX hNav1.7 Tonic IC50 [1]: 825 nM |
| Pra-[Nle6; 5-BrW7; Glu28]JzTx-V(1-29) (peptide; modification not given) |  |  |  |  |  |  |  |  | PX hNav1.7 Tonic IC50 [1]: 540 nM |
| [Glu20;Asn24;Tyr28]JzTx-V(1-29) (peptide; modification not given) | > 5 µM | > 5 µM | > 5 µM | > 5 µM |  |  |  |  |  |
| [Lys11]JzTx-V(1-29) (peptide; modification not given) |  |  |  |  | 8 nM | 1100 nM | 110 nM | 50 nM |  |
| [Lys1]JzTx-V(1-29) (peptide; modification not given) |  |  |  |  | 5 nM | 2300 nM | 60 nM | 50 nM |  |
| [Glu20;Tyr28;Nle29]JzTx-V(1-29) (peptide; modification not given) | 0.079 µM | > 5 µM | > 5 µM | 4 µM |  |  |  |  |  |
| [Arg1]JzTx-V(1-29) (peptide; modification not given) |  |  |  |  | 5 nM | 1800 nM | 120 nM | 40 nM |  |
| [Arg27]JzTx-V(1-29) (peptide; modification not given) |  |  |  |  | 28 nM | > 5000 nM | 230 nM | 100 nM |  |
| [Glu20;Lys24;Tyr28]JzTx-V(1-29) (peptide; modification not given) | 2.7 µM | > 5 µM | > 5 µM | > 5 µM |  |  |  |  |  |
| [Lys14]JzTx-V(1-29) (peptide; modification not given) |  |  |  |  | 7 nM | 1500 nM | 70 nM | 30 nM |  |
| [Arg3]JzTx-V(1-29) (peptide; modification not given) |  |  |  |  | 25 nM | 3200 nM | 140 nM | 60 nM |  |
| [Glu20;2-Nal24;Tyr28]JzTx-V(1-29) (peptide; modification not given) | 0.86 µM and 1 µM | > 7 µM | > 7 µM | > 7 µM |  |  |  |  |  |
| [Glu20;Tyr28;2-Nal29]JzTx-V(1-29) (peptide; modification not given) | 0.044 µM | > 5 µM | > 5 µM | 2.2 µM |  |  |  |  |  |
| [Glu20;Nva24;Tyr28]JzTx-V(1-29) (peptide; modification not given) | > 5 µM | > 5 µM | > 5 µM | > 5 µM |  |  |  |  |  |
| [Ala18]JzTx-V(1-29) (peptide; modification not given) |  |  |  |  | 40 nM | > 5000 nM | 260 nM | 240 nM |  |
| [Glu20;Tyr28;Leu29]JzTx-V(1-29) (peptide; modification not given) | 0.084 µM and 0.23 µM | > 5 µM | 4.5 µM and > 5 µM | 3 µM and > 5 µM |  |  |  |  |  |
| [Ala8]JzTx-V(1-29) (peptide; modification not given) |  |  |  |  | 25 nM | > 5000 nM | 250 nM | 210 nM |  |
| [Lys7]JzTx-V(1-29) (peptide; modification not given) |  |  |  |  | 80 nM | > 5000 nM | 430 nM | 310 nM |  |

| Substance | IC50, IonWorks Quattro electrophysiology [2] | IC50, IonWorks Quattro electrophysiology [3] | IC50, IonWorks Quattro electrophysiology [4] | IC50, IonWorks Quattro electrophysiology [5] | IC50 (IonWorks Quattro) [2] | IC50 (IonWorks Quattro) [3] | IC50 (IonWorks Quattro) [4] | IC50 (IonWorks Quattro) [5] | other results |
| --- | --- | --- | --- | --- | --- | --- | --- | --- | --- |
| [Glu1;1-Nal7]JzTx-V(1-29) (peptide; modification not given) | 0.032 µM and 0.047 µM | > 5 µM | 0.7 µM and 0.5 µM | 0.4 µM and 0.5 µM |  |  |  |  | Nav1.4/Nav1.7 (ratio of IC50) [4]: 21 fold and 10 fold |
| [Lys23]JzTx-V(1-29) (peptide; modification not given) |  |  |  |  | 240 nM | 4100 nM | 290 nM | 140 nM |  |
| [Ala28]JzTx-V(1-29) (peptide; modification not given) |  |  |  |  | 30 nM | > 5000 nM | 290 nM | 250 nM |  |
| [Glu20;Tyr28;Asn29]JzTx-V(1-29) (peptide; modification not given) | 0.52 µM | > 5 µM | > 5 µM | > 5 µM |  |  |  |  |  |
| [Glu1,20;Tyr28]JzTx-V(1-29) (peptide; modification not given) | 0.21 µM | 2 µM | > 5 µM | > 5 µM |  |  |  |  |  |
| [Nle6;Atz(NPEG10)11]JzTx-V(1-29) (peptide; modification not given) | 0.096 µM and 0.12 µM | > 5 µM | 0.4 µM and 0.5 µM | 0.2 µM and 0.4 µM |  |  |  |  | Nav1.4/Nav1.7 (ratio of IC50) [4]: 4 fold |
| [Arg28]JzTx-V(1-29) (peptide; modification not given) |  |  |  |  | 26 nM | 1800 nM | 140 nM | 60 nM |  |
| [Ala6]JzTx-V(1-29) (peptide; modification not given) |  |  |  |  | 94 nM | > 5000 nM | 280 nM | 160 nM |  |
| [Glu20;Leu24;Tyr28]JzTx-V(1-29) (peptide; modification not given) | > 5 µM | > 5 µM | > 5 µM | > 5 µM |  |  |  |  |  |
| [1-Nal28]JzTx-V(1-29) (peptide; modification not given) |  |  |  |  | 6 nM | 3600 nM | 100 nM | 60 nM |  |
| [Ala12]JzTx-V(1-29) (peptide; modification not given) |  |  |  |  | 22 nM | > 5000 nM | 260 nM | 150 nM |  |
| [Ala13]JzTx-V(1-29) (peptide; modification not given) |  |  |  |  | 79 nM | > 5000 nM | 570 nM | 300 nM |  |
| [Ala17]JzTx-V(1-29) (peptide; modification not given) |  |  |  |  | 8 nM | 2000 nM | 60 nM | 80 nM |  |
| [Glu20]JzTx-V(1-29) (peptide; modification not given) |  |  |  |  | 73 nM | > 5000 nM | 4600 nM | 2500 nM |  |
| [Lys13]JzTx-V(1-29) (peptide; modification not given) |  |  |  |  | 64 nM | > 5000 nM | 470 nM | 120 nM |  |
| [Glu20;Tyr28;Ser29]JzTx-V(1-29) (peptide; modification not given) | 0.34 µM | > 5 µM | > 5 µM | > 5 µM |  |  |  |  |  |
| [Arg14]JzTx-V(1-29) (peptide; modification not given) |  |  |  |  | 8 nM | 1400 nM | 80 nM | 40 nM |  |
| [Arg22]JzTx-V(1-29) (peptide; modification not given) |  |  |  |  | 16 nM | 2000 nM | 170 nM | 80 nM |  |
| [Nle6;Atz(NPEG10)8]JzTx-V(1-29) (peptide; modification not given) | 6.4 µM | > 7 µM | > 7 µM | > 7 µM |  |  |  |  |  |
| [Glu20;Atz(NPEG10)29]JzTx-V(1-29) (peptide; modification not given) | 5 µM | 20.1 µM | > 5 µM | > 5 µM |  |  |  |  | Nav1.4/Nav1.7 (ratio of IC50) [4]: 1 fold |
| [Lys20]JzTx-V(1-29) (peptide; modification not given) |  |  |  |  | 20 nM | 3400 nM | 260 nM | 60 nM |  |
| [Glu20;Val24;Tyr28]JzTx-V(1-29) (peptide; modification not given) | > 5 µM | > 5 µM | > 5 µM | > 5 µM |  |  |  |  |  |
| [Atz(NPEG10)1;Nle6]JzTx-V(1-29) (peptide; modification not given) | 0.1 µM and 0.14 µM | > 7 µM | 0.39 µM and 0.45 µM | 0.16 µM and 0.13 µM |  |  |  |  | Nav1.4/Nav1.7 (ratio of IC50) [4]: 4 fold and 3 fold |
